PSTVd stem 15 mutant pool in Nicotiana benthamiana

Reference: Wu et al. 2024, doi:10.1371/journal.ppat.1012142.

The pool varies stem 15 of the PSTVd intermediate strain in the pattern CUGGAGCGAUNGNNUNNG; wild type is CUGGAGCGAUCGCUUCGG (upper and lower strand joined, each 5' to 3', the first 9 letters being the upper strand).

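A pool of all variants was put on leaves of three Nicotiana benthamiana plants. Progeny were sequenced from the inoculated region (day 5), the margin of the inoculated leaf (day 10) and systemic leaves (day 12).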

Values are reads per thousand in the sample; higher means more abundant, 0 means not found. Each site shows the three plants. "Pool" is the share in the plasmid pool used as inoculum, on the same scale. The inoculated region was read from the minus strand, the other sites from the plus strand. IR is the inoculated region, LM the leaf margin, Sys the systemic leaves. For reference, wild type rose from 10.2 per thousand in the pool to 285, 367, 312 (inoculated region), 785, 865, 782 (leaf margin) and 854, 898, 915 (systemic leaves).

| sequence | pool | IR | LM | Sys |
|---|---|---|---|---|
| CUGGAGCGAUUGCUUUCG | 0.937 | 0.333 0.314 0.521 | 0.0414 0.0273 0.0317 | 0 0 0 |
| CUGGAGCGAUUGCUUUGG | 0.937 | 0.254 0.126 0.372 | 0.0207 0 0 | 0 0 0 |
| CUGGAGCGAUUGCUUUUG | 1.55 | 0.724 1.21 0.577 | 0.0414 0 0 | 0 0 0 |
| CUGGAGCGAUUGGAUAAG | 0.695 | 0.352 0.251 0.261 | 0.0827 0.0818 0.0317 | 0.970 0 0 |
| CUGGAGCGAUUGGAUACG | 0.905 | 0.372 0.251 0.298 | 0.0620 0 0 | 0 0 0 |
| CUGGAGCGAUUGGAUAGG | 0.824 | 0.117 0.293 0.465 | 0.103 0 0.0476 | 0 0 0 |
| CUGGAGCGAUUGGAUAUG | 0.646 | 0.391 0.293 0.521 | 0.0207 0.0273 0 | 0 0 0 |
| CUGGAGCGAUUGGAUCAG | 0.889 | 0.157 0.188 0.279 | 0 0 0 | 0 0 0 |
| CUGGAGCGAUUGGAUCCG | 0.760 | 0.294 0.272 0.205 | 0.0207 0.0273 0.0159 | 0 0 0 |
| CUGGAGCGAUUGGAUCGG | 0.792 | 0.294 0.230 0.316 | 0.0827 0.0545 0.0476 | 0 0 0 |
| CUGGAGCGAUUGGAUCUG | 1.66 | 0.920 1.30 0.763 | 0.0827 0.0818 0.0476 | 0 0 0 |
| CUGGAGCGAUUGGAUGAG | 0.743 | 0.313 0.188 0.261 | 0.0620 0.0273 0.0159 | 0 0 0 |
| CUGGAGCGAUUGGAUGCG | 0.695 | 0.254 0.230 0.409 | 0.103 0.0273 0.0476 | 0 0 0 |
| CUGGAGCGAUUGGAUGGG | 0.792 | 0.313 0.147 0.391 | 0.103 0 0.0317 | 0 0 0 |
| CUGGAGCGAUUGGAUGUG | 0.905 | 0.235 0.147 0.447 | 0.0207 0 0 | 0 0 0 |
| CUGGAGCGAUUGGAUUAG | 0.905 | 2.19 1.03 1.45 | 0.496 0.0273 1.06 | 0 0 0 |
| CUGGAGCGAUUGGAUUCG | 0.873 | 0.352 0.398 0.298 | 0 0 0.0317 | 0 0 0 |
| CUGGAGCGAUUGGAUUGG | 0.824 | 0.333 0.188 0.279 | 0.0620 0.0818 0.0317 | 0 0 0 |
| CUGGAGCGAUUGGAUUUG | 0.727 | 0.196 0.188 0.279 | 0.103 0.0545 0.0159 | 0 0 0 |
| CUGGAGCGAUUGGCUAAG | 0.776 | 1.98 0.963 1.38 | 0.0827 0 0.0159 | 0 0 0 |
| CUGGAGCGAUUGGCUACG | 0.986 | 0.352 0.272 0.354 | 0.0207 0.0545 0.0317 | 0 0 0 |
| CUGGAGCGAUUGGCUAGG | 1.05 | 0.235 1.44 0.316 | 0.0827 0 0 | 0 0 0 |
| CUGGAGCGAUUGGCUAUG | 0.743 | 0.235 0.272 0.112 | 0.124 0.0545 0.0476 | 0 0 0 |
| CUGGAGCGAUUGGCUCAG | 0.776 | 1.62 1.13 1.30 | 0.0827 0.0273 0.0159 | 0 0 0 |
| CUGGAGCGAUUGGCUCCG | 0.889 | 0.215 0.126 0.279 | 0.0414 0.0273 0.0476 | 0 0 0 |
| CUGGAGCGAUUGGCUCGG | 4.01 | 3.58 3.79 3.52 | 0.0207 0.0273 0.0317 | 0 0.0443 0.0399 |
| CUGGAGCGAUUGGCUCUG | 0.873 | 0.294 0.293 0.279 | 0.103 0 0.0476 | 0 0 0 |
| CUGGAGCGAUUGGCUGAG | 0.808 | 2.58 1.05 1.77 | 0.0827 2.43 0.808 | 0 0 0 |
| CUGGAGCGAUUGGCUGCG | 0.889 | 0.274 0.356 0.372 | 0.0827 0.0273 0.0317 | 0 0 0 |
| CUGGAGCGAUUGGCUGGG | 0.695 | 0.294 0.188 0.354 | 0.0620 0.0273 0.0159 | 0 0 0 |
| CUGGAGCGAUUGGCUGUG | 1.07 | 0.294 1.19 0.242 | 0.0414 0.0545 0.0159 | 0 0 0 |
| CUGGAGCGAUUGGCUUAG | 0.889 | 1.84 1.19 1.69 | 0.600 0.491 0.856 | 0.772 0.620 0.538 |
| CUGGAGCGAUUGGCUUCG | 1.03 | 2.15 1.44 1.64 | 0.476 0.0273 1.01 | 0.891 0.709 0 |
| CUGGAGCGAUUGGCUUGG | 1.37 | 2.05 1.49 1.79 | 0.765 0.327 0.888 | 0.713 0.399 0.399 |
| CUGGAGCGAUUGGCUUUG | 0.954 | 2.17 1.01 1.49 | 0.517 0.0273 1.13 | 0.752 0 0 |
| CUGGAGCGAUUGGGUAAG | 0.808 | 0.294 0.209 0.335 | 0.0207 0.0545 0.0317 | 0 0 0 |
| CUGGAGCGAUUGGGUACG | 0.808 | 0.137 0.168 0.223 | 0.0414 0.0273 0 | 0 0 0 |
| CUGGAGCGAUUGGGUAGG | 0.905 | 0.196 0.230 0.316 | 0.0414 0.0545 0 | 0 0 0 |
| CUGGAGCGAUUGGGUAUG | 0.840 | 0.235 0.126 0.354 | 0.0620 0.0273 0.0159 | 0 0 0 |
| CUGGAGCGAUUGGGUCAG | 0.873 | 0.430 0.272 0.409 | 0.0620 0.0273 0.0159 | 0 0 0 |
| CUGGAGCGAUUGGGUCCG | 0.824 | 0.254 0.356 0.335 | 0.0414 0.0545 0.0159 | 0 0 0 |
| CUGGAGCGAUUGGGUCGG | 1.94 | 1.90 1.63 1.94 | 0.0827 0.0545 0 | 0 0 0 |
| CUGGAGCGAUUGGGUCUG | 0.889 | 0.294 0.251 0.316 | 0 0.164 0 | 0 0 0 |
| CUGGAGCGAUUGGGUGAG | 1.07 | 0.157 1.07 0.279 | 0 0 0 | 0 0 0 |
| CUGGAGCGAUUGGGUGCG | 0.743 | 0.215 0.209 0.279 | 0.0620 0.0545 0 | 0 0 0 |
| CUGGAGCGAUUGGGUGGG | 0.727 | 0.313 0.168 0.279 | 0.0827 0.0818 0.0159 | 0 0 0 |
| CUGGAGCGAUUGGGUGUG | 0.743 | 0.235 0.356 0.316 | 0 0 0.0317 | 0 0 0 |
| CUGGAGCGAUUGGGUUAG | 1.07 | 2.37 1.32 1.58 | 0.641 0.409 1.03 | 0.733 0.443 0 |
| CUGGAGCGAUUGGGUUCG | 0.873 | 0.196 0.398 0.205 | 0.0414 0.0273 0.0159 | 0 0 0 |
| CUGGAGCGAUUGGGUUGG | 0.824 | 0.215 0.230 0.409 | 0 0.0545 0.0159 | 0 0 0 |
| CUGGAGCGAUUGGGUUUG | 0.760 | 0.157 0.251 0.316 | 0.0207 0 0.0317 | 0 0 0 |
| CUGGAGCGAUUGGUUAAG | 0.840 | 0.176 0.126 0.223 | 0.0414 0 0.0317 | 0 0 0 |
| CUGGAGCGAUUGGUUACG | 0.921 | 0.254 0.335 0.223 | 0 0.0818 0.0159 | 0 0 0 |
| CUGGAGCGAUUGGUUAGG | 0.873 | 0.372 0.419 0.372 | 0 0 0.0476 | 0 0 0 |
| CUGGAGCGAUUGGUUAUG | 1.86 | 0.548 0.649 0.558 | 0.0827 0.0273 0.0159 | 0 0 0 |
| CUGGAGCGAUUGGUUCAG | 1.65 | 1.10 1.70 1.12 | 0.0414 0.0273 0 | 0 0 0.0399 |
| CUGGAGCGAUUGGUUCCG | 0.743 | 0.294 0.272 0.242 | 0.0414 0.0273 0.0159 | 0 0 0 |
| CUGGAGCGAUUGGUUCGG | 2.60 | 4.46 3.58 3.95 | 0.124 0.0818 0.0159 | 0 0 0.0199 |
| CUGGAGCGAUUGGUUCUG | 0.921 | 0.372 0.251 0.279 | 0.0414 0.0545 0.0476 | 0 0 0 |
| CUGGAGCGAUUGGUUGAG | 0.937 | 0.274 0.356 0.298 | 0.0207 0.0273 0 | 0 0 0 |
| CUGGAGCGAUUGGUUGCG | 0.760 | 0.254 0.398 0.261 | 0 0.0273 0.0634 | 0 0 0 |

The last 8 entries again:

| sequence | pool | IR | LM | Sys |
|---|---|---|---|---|
| CUGGAGCGAUUGGUUAGG | 0.873 | 0.372 0.419 0.372 | 0 0 0.0476 | 0 0 0 |
| CUGGAGCGAUUGGUUAUG | 1.86 | 0.548 0.649 0.558 | 0.0827 0.0273 0.0159 | 0 0 0 |
| CUGGAGCGAUUGGUUCAG | 1.65 | 1.10 1.70 1.12 | 0.0414 0.0273 0 | 0 0 0.0399 |
| CUGGAGCGAUUGGUUCCG | 0.743 | 0.294 0.272 0.242 | 0.0414 0.0273 0.0159 | 0 0 0 |
| CUGGAGCGAUUGGUUCGG | 2.60 | 4.46 3.58 3.95 | 0.124 0.0818 0.0159 | 0 0 0.0199 |
| CUGGAGCGAUUGGUUCUG | 0.921 | 0.372 0.251 0.279 | 0.0414 0.0545 0.0476 | 0 0 0 |
| CUGGAGCGAUUGGUUGAG | 0.937 | 0.274 0.356 0.298 | 0.0207 0.0273 0 | 0 0 0 |
| CUGGAGCGAUUGGUUGCG | 0.760 | 0.254 0.398 0.261 | 0 0.0273 0.0634 | 0 0 0 |

The authors trace changes outside the varied positions to PCR and sequencing errors or to mutation in the plant; presence does not show that a variant is infectious alone. Samples held 36,693 to 63,082 reads, so the smallest values rest on one or two reads.